From article PMC3001473 (PLoS ONE, 2010)

Biological target: LcrV (V antigen) of Yersinia pestis (Yersinia pestis) (UniProt P0C7U7)
Experiment: SPR

## IFNγ mutant S1 (from UniProt P01579 24-161) (ligand)
  maximum response (RU) at 4 µg/mL: 175 RU
